Test [1] relates to CEM-SS. Nature of the test: Inhibitory concentration for anti-HIV activity against HIV-IIIB in CEM-SS cells. In kind it is functional, cell-based, Homo sapiens.
The subject of test [2] is MRC5. Kind of test: Inhibitory concentration for anti-HCMV activity against AD-169 strain in MRC-5 cells.

On to `Cn1cnc2c(ncn2[C@@H]2O[C@H](COP(C)(=O)O)[C@@H](OP(C)(=O)O)[C@H]2O)c1=S`, for which the IC50 (commonly the concentration at which inhibition is half-maximal) in test [1] was 80 nM; in test [2], 150 nM.

For `CO[C@@H]1[C@H](OP(C)(=O)O)[C@@H](COP(C)(=O)O)O[C@H]1n1cnc2c(=S)n3ncn(C)c3nc21`, the figures for the IC50 in test [1] and in test [2] were 1700 nM and greater than 2800 nM, respectively.

`CO[C@@H]1[C@H](OP(C)(=O)O)[C@@H](COP(C)(=O)O)O[C@H]1n1cnc2c(=O)n3ncn(C)c3nc21`: the 50% inhibitory concentration (IC50) in test [1] was greater than 7000 nM; in test [2], 6700 nM.

Regarding `Cn1cnn2c(=O)c3ncn([C@@H]4O[C@H](COP(C)(=O)O)[C@@H](OP(C)(=O)O)[C@H]4O)c3nc12`, the IC50 in test [1] stood at 1000 nM; in test [2], 430 nM.

Values taken from ChEMBL document CHEMBL1131418, “Antiviral oligo- and polyribonucleotides containing selected triazolo[2,3-a]purines” (J Med Chem, 1998).
